Here are results for 23 compounds from PubChem BioAssay AID624414 (National Center for Advancing Translational Sciences (NCATS), 2012).

Chains of the proteins cited; added tags and fusions are not shown.
UniProt Q9GZU1, whole entry: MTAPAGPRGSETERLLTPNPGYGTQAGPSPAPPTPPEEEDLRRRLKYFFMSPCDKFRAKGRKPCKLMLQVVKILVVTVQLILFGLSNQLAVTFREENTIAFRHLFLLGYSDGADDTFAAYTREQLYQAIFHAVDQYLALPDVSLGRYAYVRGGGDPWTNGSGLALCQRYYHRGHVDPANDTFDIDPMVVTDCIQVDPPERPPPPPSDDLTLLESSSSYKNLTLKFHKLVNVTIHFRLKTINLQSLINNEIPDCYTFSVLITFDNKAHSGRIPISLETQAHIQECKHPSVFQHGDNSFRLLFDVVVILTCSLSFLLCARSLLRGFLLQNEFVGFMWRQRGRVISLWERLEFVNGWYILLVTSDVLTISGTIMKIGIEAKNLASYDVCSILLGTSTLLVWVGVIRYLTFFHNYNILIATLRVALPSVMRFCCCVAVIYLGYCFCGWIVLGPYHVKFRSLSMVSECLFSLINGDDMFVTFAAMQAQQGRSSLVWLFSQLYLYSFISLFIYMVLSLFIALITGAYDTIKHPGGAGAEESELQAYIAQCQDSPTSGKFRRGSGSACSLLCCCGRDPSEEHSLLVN

Structures are written as SMILES. The list shows a part of the results, in another mix than the full data. The source made the active and inactive calls. Rule as the data show it: active = activation above about 50%; inconclusive = mostly about 30% to 49%; inactive = weaker than that.

The target of the assay is Mucolipin-1 (Homo sapiens) (UniProt Q9GZU1). Briefly: qHTS for Agonists of the Human Mucolipin Transient Receptor Potential 1 (TRPML1). Also: 0% is about no effect. The note with it: TRPML1-expressing cells, Ca2+ dye fluorescence, FDSS; active compounds read high. An excerpt:
Mutations of human Mucolipin transient receptor potential 1 (TRPML1) cause type IV mucolipidosis (ML4), a devastating neurodegenerative disease in young children. […] Currently, there is no treatment for ML4. […] Under physiological conditions, TRPMLs regulate membrane trafficking by transducing information about PI(3,5)P2 levels into changes in juxtaorganellar Ca2+, thereby triggering membrane fusion/fission events in the late endocytic pathways (endolysosomal trafficking). In addition, TRPML1 mediates release of Fe2+ from late endosomes and lysosomes, which is essential for cellular iron metabolism. Thus, impaired ion (Ca2+ and Fe2+) homeostasis underlies lysosomal dysfunction and ML4 phenotypes. In ML4 cells, the problem is twofold. First, defective Ca2+-dependent membrane trafficking due to TRPML1-deficiency causes accumulation of lipids and other bio-materials in the lysosome. The second strike comes from the lysosomal iron overload (due to impairment of TRPML1's Fe2+ conductivity), which converts the accumulated materials into the nondegradable (resistant to lysosomal degradation) lipofuscin (also called aging pigment) in the lysosome. Lipofuscin accumulation dramatically compromises the functions of lysosomes.
Niemann-Pick type C (NPC) disease is another lysosome storage disease (LSD) with severe neurodegeneration during the childhood. Currently, there is no cure for NPC. […] Thus, TRPML1 is likely to be an essential regulator of lysosome ion homeostasis. We specifically hypothesize that stimulating TRPML1's Fe2+/Ca2+ channel activity in the lysosome using synthetic agonists can alleviate neurodegeneration associated with ML4 or NPC.
To this end, a high throughput screen was developed in a miniaturized format to screen against the Molecular Libraries Small Molecule Repository (MLSMR) to find small molecules that act either as inhibitors or agonist against the TRPML1 channel.
NIH Chemical Genomics Center [NCGC]
NIH Molecular Libraries Probe Centers Network [MLPCN]
Assay Submitter (PI): Haoxing Xu, University of Michigan Ann Arbor
TRPML1-DL cells are dissociated from flasks, counted and, brought up to a density of 500,000 cells per mL of media containing a 1X Tet inducer. Using a Multidrop Combi, 3uL of this cell solution is dispensed to each well of a 1536 TC treated, black, clear bottom hi base plate for a final cell density of 1,500 cells per well. The assay plates are incubated overnight (approximately 16 hours) at 37 degrees C and 5% CO2. Using a Multidrop Combi, 2uL of ABD Ca8 no wash dye plus quencher is added to each well. The assay plates incubate at room temperature in the dark for 45-90 minutes. The assay plate is read on the FDSS using the following protocol: 10 second baseline read, 23nL of compounds and controls are added using 1536 pintool, agonist read for 110 seconds, 1 uL EC80 addition (4uM final 54-4 diluted in media), antagonist read for 110 seconds.
As to `CN(C)C1(CNC(=O)c2ccc(S(C)(=O)=O)cc2)CCCCC1`, the activation was inactive: -0.176%.
`CC1=C2N=C(C=C3N=C(C(C)=C4[N-][C@@](C)([C@@H]5N=C1[C@](C)(CCC(=O)NC[C@@H](C)OP(=O)([O-])O[C@H]1[C@@H](O)[C@@H](n6cnc7cc(C)c(C)cc76)O[C@@H]1CO)[C@H]5CC(N)=O)[C@@](C)(CC(N)=O)[C@@H]4CCC(N)=O)[C@@](C)(CC(N)=O)[C@@H]3CCC(N)=O)C(C)(C)[C@@H]2CCC(N)=O.[C-]#N.[Co+3]`: the activation is inactive: -0.252%.
Regarding `O=[N+]([O-])c1cc([N+](=O)[O-])c(Nc2nnnn2CCO)c([N+](=O)[O-])c1`, the activation was inactive: 1.13%.
The figure for `O=C(/C=C/c1ccccc1)OC1CN2CCC1CC2` (stereo not drawn) is inactive: 0.607%.
The figure for `CCCC1OP(=O)(Nc2ccccc2)OCC1CC` (stereo not drawn) is inactive: 1.54%; for `Cc1nn(-c2ccccc2)c2c1P(=O)(N1CCOCC1)N(C)C(c1ccccc1)=N2` (stereo not drawn) it is inactive: 0.536%; for `CC1CCC(C(C)C)C(OP(=O)(Nc2ccccn2)c2ccccc2)C1` (stereo not drawn) it is inactive: 27.2%.
The figure for `Cc1ccc(C(=O)OC2CN3CCC2CC3)cc1` (stereo not drawn) is inactive: 1.86%; for `COc1cc([N+](=O)[O-])ccc1[N+](=O)[O-]` it is inactive: -0.824%; for `COc1cc(C2NCCC3(OCCO3)C2(C)C)cc(OC)c1OC.O=[N+]([O-])c1cc([N+](=O)[O-])c(O)c([N+](=O)[O-])c1` (stereo not drawn) it is inactive: -0.137%.
For the compound `CCCOc1ccc(NP(C)(=O)Oc2ccc(Cl)cc2)cc1` (stereo not drawn), the activation is inactive: 1.23%.
On to `Nc1cccc([As](=O)(O)c2ccccc2)c1`, for which the activation was inactive: -0.472%.
`CP(=O)(Nc1ccc(SC(F)(F)F)cc1)Oc1ccccc1` (stereo not drawn): the activation is inactive: -0.14%.
With `Cc1ccc(OCC(=O)OC2CN3CCC2CC3)cc1` (stereo not drawn), the activation was inactive: 0.304%.
Consider `O=[As](O)(c1cccs1)c1cccs1`, for which the activation was inactive: 0.0843%.
Take `O=P1(Nc2ccc(Br)cn2)COc2ccccc2OC1`: the activation was inactive: -0.645%.
To `NS(=O)(=O)c1cccc(NC(=O)COC(=O)C(O)(c2ccccc2)c2ccccc2)c1` belongs inactive: -0.129%; to `COc1ccccc1OP(C)(=O)Nc1c(C)cccc1C` (stereo not drawn), inactive: 2.03%; to `CN1CCCCC1COC(=O)C1(O)c2ccccc2CCc2ccccc21` (stereo not drawn), inactive: -0.257%.
The figure for `O=P1(Nc2ncccn2)COc2ccccc2OC1` is inactive: -0.389%; for `O=P1(N(CCCl)CCCl)NCCC(C(F)(F)F)O1` (stereo not drawn) it is inactive: 0.245%; for `Clc1n[nH]nc1-c1nn[nH][15n]1` it is inactive: -0.0925%.
As to `CN(Cc1cccnc1)C(=O)COc1ccc(Cl)c(Cl)c1.O=[N+]([O-])c1cc([N+](=O)[O-])c(O)c([N+](=O)[O-])c1`, the activation was inactive: -1.07%.
